Measured values from several laboratories, pooled; numbers as filed in NIAID ChemDB.

All rows: tests in culture; organism: HIV-1; endpoint: fold resistance

Blank or dashed fields: not listed here. Fold resistance has wild type as its base. Conditions beyond the fields shown may differ between rows.

smiles,changes,cells,read by,strain,value
Nc1nc(NC2CC2)c2ncn([C@H]3C=C[C@@H](CO)C3)c2n1,RT-A62V V75I F77C F116Y Q151M,MT-4,p24,XM-Q151M,2.4
CS(=O)(=O)Nc1ccc(NC(=O)COc2ccc(Cl)cc2C(=O)c2ccccc2)cc1,RT-Y181C,HeLa + HELA CD4+,β-galactosidase,HXB2,~10
CCN1C(=O)c2c(O)c(=O)c(C(=O)NCc3ccc(F)cc3F)cn2[C@H]2CCOC[C@H]21,G140S/Q148R,MT-2,luminescence,,2.9
CCN1c2ncc(CCOc3ccc(Nc4ccc(C(=O)O)cc4)cc3C)cc2C(=O)N(C)c2cccnc21,RT-K103N Y181C,C8166,p24,,>1
CCCc1cc(=O)oc2c3c(c4c(c12)OC(C)(C)CC4)O[C@H](C)[C@@H](C)C3=O,RT-Y181C,,cytopathic effect / XTT,,<6
Cc1cc(OCCCS(N)(=O)=O)ccc1NC(=O)COc1ccc(Cl)cc1C(=O)c1cc(F)cc(C(F)(F)F)c1,RT-G190A,HeLa + HELA CD4+,β-galactosidase,HXB2,~1
Cc1occc1C(=S)Nc1ccc(Cl)c(/C=N/OC(C)(C)C)c1,RT-V108I,CEM + CEM-SS,cytopathic effect / XTT,NL4-3,2.5
CCN1c2ncc(CCOc3ccc(NC(=O)c4ccc(C(=O)O)cc4)cc3C)cc2C(=O)N(C)c2cccnc21,RT-K103N Y181C,C8166,p24,,>1
CCc1c(C)[nH]c(=O)c(C(F)(F)F)c1Oc1cc(C)cc(C)c1,RT-L100I,MT-4,cytopathic effect / MTT,,10
Cc1c(OCC2CCC2)c2cc(F)ccc2[nH]c1=O,RT-V106A Y181C,HeLa + HeLa-MAGI,β-galactosidase,NNRTI-resistant (RT V106A Y181C),>3.28
CC(C)[C@H](NC(=O)OCc1ccccn1)C(=O)N[C@@H](Cc1ccccc1)[C@@H](O)C[C@H](Cc1ccccc1)NC(=O)OCc1cccnc1,PR-V82T,MT-4,p24,NL4-3,1.875
CCc1c(C)[nH]c(=O)c(Br)c1Oc1cc(C)cc(C)c1,RT-L100I K103N,MT-4,cytopathic effect / MTT,,32
CCN1c2ncc(CCOc3ccc(-c4ccc(N)c(C(=O)O)c4)cc3C)cc2C(=O)N(C)c2cccnc21,RT-K103N Y181C,C8166,p24,,1
C/C=C/CSc1cc(NC(=S)c2ccsc2C)ccc1Cl,RT-V108I,CEM + CEM-SS,p24,NL4-3,2.5
CCc1c(C)[nH]c(=O)c(OC)c1Oc1cc(C)cc(C)c1,RT-L100I K103N,MT-4,cytopathic effect / MTT,,126
Cc1occc1C(=S)Nc1ccc(Cl)c(C(=O)OCC(F)(F)F)c1,RT-T139I,CEM + CEM-SS,cytopathic effect / XTT,CALO(RT-T139I),1.8
O=C1Nc2ccc(F)c(F)c2[C@@](C#CC2CC2)(C(F)(F)F)N1,RT-G190S,,,,58.9
CCc1cc(C#N)cc(C(=O)c2cc(Cl)ccc2OCC(=O)Nc2ccc(S(N)(=O)=O)cc2C)c1,RT-K103N P225H,HeLa + HELA CD4+,β-galactosidase,HXB2,~1
Cc1ccc(C2CC2)c(-c2ccc3c(c2)CCCO3)c1[C@H](OC(C)(C)C)C(=O)O,INSTI-resistant (IN-Y143R),MT-4,luminescence,NL4-3,1
CCOCn1c(Sc2ccccc2)c(CC)c(=O)[nH]c1=S,Nevirapine resistant (RT Y181C),CEM,syncytia,IIIB,28.2
Cc1ccc(C2CC2)c(-c2cc(F)c3c(c2C)CCCO3)c1[C@H](OC1CC1)C(=O)O,INSTI-resistant (IN-Q148H),MT-4,luminescence,NL4-3,1
O=C1Nc2ccc(Cl)cc2[C@@](C#CC2CC2)(C(F)(F)F)N1,RT-Y188L,,,,51.6
CCN1C(=O)c2c(O)c(=O)c(C(=O)NCc3ccc(F)c(Cl)c3F)cn2[C@H]2CCO[C@H]21,E138K/Q148K,MT-2,luminescence,,2.3
CC(C)c1c(OC#CC2CC2)c2cc(Cl)ccc2[nH]c1=O,RT-K103N Y181C,HeLa + HeLa-MAGI,β-galactosidase,NNRTI-resistant (RT K103N Y181C),38.75
Cc1occc1C(=S)Nc1ccc(Cl)c(C(=O)OCC2CC2)c1,RT-Y181C,CEM + CEM-SS,cytopathic effect / XTT,NL4-3,4
CC(C)=CCOc1cc(NC(=S)c2ccoc2C)ccc1Cl,RT-Y181C,CEM + CEM-SS,cytopathic effect / XTT,E BPTU-resistant (RT Y181C),40
C=CCO/N=C/c1cc(NC(=S)c2ccoc2C)ccc1Cl,RT-D67N K70R Y181C T215Y K219Q,CEM + CEM-SS,cytopathic effect / XTT,4XAZT/Y181C (RT D67N K70R Y181C T215Y K219Q),42.9
CCc1c(Sc2cc(C)cc(C)c2)n(COCCO)c(=S)[nH]c1=O,RT-Y188H,CEM,syncytia,IIIB,≥2500
N#Cc1cc(Cl)cc(Oc2c(Br)ccc(CC(=O)Nc3ccc(S(N)(=O)=O)cc3Cl)c2F)c1,K103N,MT-4,,,1
Nc1nc(=O)n([C@H]2C=C[C@@H](CO)O2)cc1F,RT-T69SSS L210W T215Y,MT-4,p24,XM-T69SSS,5.8
CCC(=O)c1ccc(F)c([C@@H]2C[C@@H]2NC(=O)Nc2ccc(C#N)cn2)c1O,NNRTI-resistant (RT Y181V),TZM-bl,β-galactosidase / luminescence,LAI,58.6
CCOCn1c(Sc2ccccc2)c(C(C)C)c(=O)[nH]c1=O,Nevirapine resistant (RT Y181C),CEM,syncytia,IIIB,80
CC(C)=CCN1Cc2cccc3[nH]c(=O)n(c23)CC1C,RT-Y181C,CEM + CEM-SS,cytopathic effect / XTT,UC82-R (RT-Y181C),44
C[C@H]1CO[C@@H]2Cn3cc(C(=O)NCc4ccc(F)cc4F)c(=O)c(O)c3C(=O)N12,G118R,CBMC,RT activity,NL4-3,8
CCc1c(C)[nH]c(=O)c(SC)c1Oc1cc(C)cc(C)c1,RT-K103N Y181C,MT-4,cytopathic effect / MTT,,16
CCN1c2ncc(CCOc3ccc(-c4ccccc4)cc3)cc2C(=O)N(C)c2cccnc21,RT-K103N Y181C,C8166,p24,,>5
CC=CCOc1cc(NC(=S)c2ccoc2C)ccc1OC,RT-V179D,CEM + CEM-SS,cytopathic effect / XTT,NL4-3,20
COc1ccnc2[nH]cc(C(=O)C(=O)N3CCN(C(=O)c4ccccc4)C[C@H]3C)c12,GP120-M434I,MT-2,RT activity,LAI(GP120-M434I) Recombinant,4.25
C[C@@H]1CCO[C@H]2Cn3cc(C(=O)NCc4ccc(F)cc4F)c(=O)c(O)c3C(=O)N12,V72I/L74F/V75I,TZM-bl,luciferase / luminescence,,0.5
CC(C)=CCOc1cc(NC(=S)c2ccsc2C)ccc1Cl,RT-Y181C,CEM + CEM-SS,cytopathic effect / XTT,UC38-RS (RT-Y181C),25
CCc1c(C)[nH]c(=O)c(I)c1Oc1cc(C)cc(C)c1,RT-L100I,MT-4,cytopathic effect / MTT,,5
CCN1c2ncc(CCOc3ccc(-c4cn(C)cn4)cc3C)cc2C(=O)N(C)c2cccnc21,RT-K103N Y181C,C8166,p24,,1
CCN1C(=O)c2c(O)c(=O)c(C(=O)NCc3c(F)cc(F)cc3F)cn2[C@H]2COC[C@H]21,E138K/Q148K,MT-2,luminescence,,23.8
CCc1c(C)[nH]c(=O)c(C(C)C)c1Oc1cc(C)cc(C)c1,RT-Y188L,MT-4,cytopathic effect / MTT,,2
Cc1occc1C(=S)Nc1ccc(Cl)c(C(=O)OC(C)C)c1,RT-V179D,CEM + CEM-SS,cytopathic effect / XTT,NL4-3,20
CCN1c2ncc(CCOc3ccc(-c4ccc[n+]([O-])c4)cc3C)cc2C(=O)N(C)c2cccnc21,RT-K103N Y181C,C8166,p24,,1
CCc1c(Sc2cc(C)cc(C)c2)n(COCc2ccccc2)c(=O)[nH]c1=O,RT-Y188H,CEM,syncytia,IIIB,630
Cc1cc2[nH]cnc2cc1NC(=O)COc1ccc(Cl)cc1C(=O)c1cc(F)cc(C(F)(F)F)c1,RT-K103N P225H,HeLa + HELA CD4+,β-galactosidase,HXB2,~1
CCOCn1c(Sc2ccccc2)c(C(C)C)c(=O)[nH]c1=S,RT-L100I,CEM,syncytia,IIIB (TIBO 82150) (RT-L100I),3.33
O=C(O[C@@H]1[C@H](OC(=O)c2ccccc2)[C@@H](CO)O[C@H]1n1cnc2c(N(C(=O)c3ccccc3)C(=O)c3ccccc3)ncnc21)c1ccccc1,Q184H,HeLaP4,β-galactosidase,NL4-3,0.88